Compound potency records, mixed from different reports. Data source: NIAID ChemDB in PubChem.

All rows: tests in culture; species: HIV-2; cells: MT-4; read-out: EC50

ECn is the concentration giving n% inhibition of infection, replication or growth.

structure	strain	changes	read by	value
CC1(C)C(N)=C(c2ccccc2)S(=O)(=O)N1Cc1cccc(Cl)c1	ROD		cytopathic effect / MTT	>125 µg/mL
Cc1ccc(S(=O)(=O)Sc2nnc(CNC(=O)COc3ccc4ccccc4c3)n2-c2ccccc2)cc1	ROD		MTT	>12.7 µg/mL
COc1ccc(CSc2nc(C(=O)c3cccc(Br)c3)c(C)c(=O)[nH]2)cc1			MTT	>252 µM
O=C(COc1ccc2ccccc2c1)NCc1n[nH]c(=S)n1-c1ccc(Cl)cc1	ROD		MTT	>20.2 µg/mL
O=C(Nc1sc2c(c1C(=O)Nc1ccccn1)CCCCC2)c1ccc(O)c(O)c1	ROD		MTT / absorbance	>30.69 µM
Cc1ccnc2c1NC(=O)c1cccnc1N2C1CC1	ROD	K103N	MTT	>15 µM
O=C(COc1ccc2ccccc2c1)NCC(=O)NNC(=S)Nc1ccc(Br)cc1	ROD		MTT	>31.2 µg/mL
C[C@H](CS)C(=O)N1CCC[C@@H]1c1nc2c([N+](=O)[O-])cccc2[nH]1	ROD		MTT	>11.27 µg/mL
COC(=O)/C=C1\S/C(=N/N=C/c2ccccc2Br)NC1=O	ROD		cytopathic effect / MTT	>13.45 µM
Nc1nc(=O)n([C@H]2C=C[C@@H](CO)O2)cc1Cl	LAV-2		cytopathic effect / trypan blue	19 µM
CC1=C(C(=O)Nc2ccc(C)cc2)C2=NN=C(N)C2C(=O)N1	ROD		MTT	100 µg/mL
COc1ccc(CCNc2nc(NC(=O)Nc3ccc(F)cc3)nc(Oc3cc(=O)oc4ccccc34)n2)cc1OC	ROD		MTT	>19.75 µg/mL
O=c1[nH]c(=O)n([C@H]2C=C[C@@H](CO)O2)cc1Cl	LAV-2		cytopathic effect / trypan blue	>20 µM
O=C(COc1ccc2ccccc2c1)NCc1nnc(Sc2nc3ccccc3[nH]2)n1-c1ccccc1	ROD		MTT	>2.2 µg/mL
C[C@H](CSCC(N)=O)C(=O)N1CCC[C@@H]1C(=O)O	ROD		MTT	>3.12 µg/mL
COc1ccc(CCNc2nc(NC(=S)Nc3ccccc3C)nc(Oc3cc(=O)oc4ccccc34)n2)cc1OC	ROD		MTT	>20.03 µg/mL
COc1ccc(CSc2nc(C(=O)c3ccc(F)cc3)c(C)c(=O)[nH]2)cc1			MTT	>225 µM
COC(=O)/C=C1\S/C(=N/N=C/c2ccccc2OCc2ccccc2)NC1=O	ROD		cytopathic effect / MTT	>14.35 µM
CC1(C)C(N)=C(c2ccccc2)S(=O)(=O)N1Cc1ccccc1	ROD		cytopathic effect / MTT	>125 µg/mL
Nc1nc2c(ncn2COCCO)c(=O)[nH]1	ROD		cytopathic effect / MTT	>555 µM
CC1(Cc2ccccc2)OS(=O)(=O)C=C1N	ROD		cytopathic effect / MTT	>125 µg/mL
CC1=C(C(=O)Nc2ccccc2)C2=NN=C(N)C2C(=O)N1	ROD		MTT	94.7 µg/mL
O=S(=O)(O)O.O=S(=O)(O)O.O=S(=O)(O)O.O=S(=O)(O)O.O=S(=O)(O)O.O=S(=O)(O)O.OC[C@H]1O[C@@H]2O[C@H]3[C@H](O)[C@@H](O)[C@@H](O[C@H]4[C@H](O)[C@@H](O)[C@@H](O[C@H]5[C@H](O)[C@@H](O)[C@@H](O[C@H]6[C@H](O)[C@@H](O)[C@@H](O[C@H]7[C@H](O)[C@@H](O)[C@@H](O[C@H]1[C@H](O)[C@H]2O)O[C@@H]7CO)O[C@@H]6CO)O[C@@H]5CO)O[C@@H]4CO)O[C@@H]3CO	ROD		cytopathic effect / MTT	1.9 µg/mL
CCOC(=O)CNc1nc(NC(=O)Nc2ccc(Br)cc2)nc(Oc2cc(=O)oc3ccccc23)n1	ROD		MTT	>125 µg/mL
O=c1ccn(C23C=C[C@@H](CO)[C@@H]2C3)c(=O)[nH]1	ROD		MTT	>100 µg/mL
CC1=C(C(=O)Nc2cccc([N+](=O)[O-])c2)C2=NN=C(N)C2C(=O)N1	ROD		MTT	101 µg/mL
Cc1cn([C@@H]2O[C@@H]3CN[C@@]4(OCC(C)C)CS(=O)(=O)O[C@@]34[C@H]2O)c(=O)[nH]c1=O	ROD			>250 µM
Cc1cn([C@H]2C[C@H](N=[N+]=[N-])[C@@H](CO)O2)c(=O)[nH]c1=O	ROD		MTT	0.021 µM
C[C@H](CS)C(=O)N1CCC[C@@H]1c1nc2ncnc(N)c2[nH]1	ROD		MTT	>24.7 µg/mL
CO[C@]12CS(=O)(=O)O[C@@]13[C@@H](CN2)O[C@@H](n1cc(C)c(=O)[nH]c1=O)[C@@H]3O	ROD			>250 µM
COc1ccc(CCNc2nc(NC(=O)Nc3cccc(Cl)c3)nc(Oc3cc(=O)oc4ccccc34)n2)cc1OC	ROD		MTT	>25.23 µg/mL
O=S(=O)(O)c1cc(Cl)cc(Cc2cc(Cl)cc(S(=O)(=O)O)c2O)c1O	ROD		cytopathic effect / MTT	>100 µg/mL
Cc1cn([C@@H]2O[C@@H]3CN[C@@]4(O)CS(=O)(=O)O[C@@]34[C@H]2O[Si](C)(C)C(C)(C)C)c(=O)[nH]c1=O	ROD			>250 µM
COC(=O)/C=C1\S/C(=N/N=C/c2ccccc2Cl)NC1=O	ROD		cytopathic effect / MTT	>78.7 µM
COc1ccc(CNC2=CS(=O)(=O)OC2(C)C)c(OC)c1	ROD		cytopathic effect / MTT	>125 µg/mL
Cc1cn([C@@H]2O[C@@H]3CN[C@@]4(OCCOc5ccccc5)CS(=O)(=O)O[C@@]34[C@H]2O)c(=O)[nH]c1=O	ROD			>250 µM
COC(=O)/C=C1\S/C(=N/N=C/c2cccc(Br)c2)NC1=O	ROD		cytopathic effect / MTT	>11.15 µM

Repeating the final 2 entries:

structure | strain | changes | read by | value
Cc1cn([C@@H]2O[C@@H]3CN[C@@]4(OCCOc5ccccc5)CS(=O)(=O)O[C@@]34[C@H]2O)c(=O)[nH]c1=O | ROD |  |  | >250 µM
COC(=O)/C=C1\S/C(=N/N=C/c2cccc(Br)c2)NC1=O | ROD |  | cytopathic effect / MTT | >11.15 µM

Lines come from different laboratories, so protocols vary. Blank or dashed fields: not listed here.